Experimental data as given in patent US20100256040A1 (priority 2001, published 2010).
Where a SMILES comes first, the peptide text is derived from it.

Tested on: HIV-1
Conditions: TC50 / IC50
Method: Fresh human blood was obtained commercially from Interstate Blood Bank, Inc. (Memphis, Tenn.). The lymphotropic clinical isolate HIV-1ROJO was obtained from a pediatric patient attending the AIDS Clinic at the University of Alabama at Birmingham. The laboratory-adapted HIV-1IIIB strain was propagated and tittered in fresh human PBMCs; pre-titered aliquots of HIV-1ROJO and Hiv-1IIIB were removed from the freezer (−80° C.) and thawed rapidly to room temperature in a biological safety cabinet immediately before use. Phytohemagglutinin (PHA-P) was obtained from Sigma (St. Louis, Mo.) and recombinant IL-2 was obtained from Amgen (San Francisco, Calif.).
Fresh human PBMCs were isolated from screened donors, seronegative for HIV and HBV. Leukophoresed blood was diluted 1:1 with Dulbecco's phosphate buffered saline (PBS), layered over 14 mL of Ficoll-Hypaque density gradient in a 50 mL centrifuge tube and then centrifuged for 30 minutes at 600×g. Banded PBMCs were aspirated from the resulting interface and subsequently washed 2× with PBS by low speed centrifugation. […]
A microtiter based reverse transcriptase (RT) reaction was utilized. […] Opti-Fluor-O (Packard) was added to each sample and incorporated radioactivity was quantified utilizing a Wallac 1450 MicroBeta Plus liquid scintillation counter.

Row | Compound | Therapeutic Index
1 | Cc1cn([C@H]2C[C@H](N=[N+]=[N-])[C@@H](CO)O2)c(=O)[nH]c1=O [AZT, 3′-Azido-3′-deoxythymidine, reference compound] | >125.00
2 | C[C@H](NC(=O)[C@@H](NC(=O)[C@@H]1CCCN1C(=O)[C@H](CCC(=O)O)NC(=O)[C@@H]1CCCN1C(=O)[C@H](CCCNC(=N)N)NC(=O)[C@H](CCCNC(=N)N)NC(=O)[C@H](CCCNC(=N)N)NC(=O)[C@H](CCCNC(=N)N)NC(=O)[C@H](CCCNC(=N)N)NC(=O)[C@H](CCCNC(=N)N)NC(=O)[C@H](CCCNC(=N)N)NC(=O)[C@H](CCCNC(=N)N)NC(=O)[C@@H](N)CCCNC(=N)N)[C@@H](C)O)C(=O)N1CCC[C@H]1C(=O)N[C@@H](CCC(=O)O)C(=O)N[C@@H](CCC(=O)O)C(=O)O [MPI-PEP1, NH2-(R)9-PEPTAPEE-COOH] (H-RRRRRRRRRPEPTAPEE-OH) | 9.2
